Assays:
[1] = system: PBMC of an HIV-infected patient; experiment: CD4/CD8 T cell proportions in stimulated PBMC of an HIV-infected patient; type: cell-based, human
From the text: It is further important that IL-2 preferentially stimulates CD8 T lymphocytes for proliferation, whereas by aCD28 in particular the CD4 T cells are addressed. This can be seen from the data of table I: PBMC of an HIV-infected patient were stimulated for three or ten days with IL-2 or aCD28.

[2] = system: PBMC of an HIV-1-infected patient; experiment: aCD28- and IL-2-induced proliferation with and without HAART; type: cell-based, human; conditions: day 3 to day 4, FIG. 10
HIV = conditions: IL-2 together with HAART therapy; Chun et al., Nature Medicine 1999; cited from earlier work

In the case of “IL-2: T cell growth factor Interleukin-2”, the “% CD4” value ([1]; After 10 Days) is reported as 27%, the “% CD8” value ([1]; After 10 Days) is reported as 73% and the “% CD4” value ([1]; After 3 days) is reported as 46%. The “% CD8” value ([1]; After 3 days) was 54%, the “displacement of CD4/CD8 proportion” value ([1]; stimulated for three or ten days) was “distinct displacement in favor of CD8 T cells” and the “induced proliferation, IL-2 compared with aCD28” value [2] was “stronger proliferation than CD28”. The “influence of HAART on the induced proliferation” value [2] was “not affected by HAART” and the “amount of replication-competent HIV in T lymphocytes at rest” value (HIV) was “significant reduction”.
